The values that follow come from PMC10575921 (Nature Communications, 2023).

For the assay, the system named is six mutated 3CL^pros (G15S, T21I, L89F, K90R, P132H, and L205V). The assay can be described thus: FRET-based 3CLpro enzymatic inhibition assay, six mutants as a group. As to conditions: range over G15S.

The molecule `CC(C)(C)[C@H](NC(=O)C(F)(F)F)C(=O)N1CC2(C[C@H]1C(=O)N[C@H](C#N)C[C@@H]1CCNC1=O)SCCS2` [compound 9, simnotrelvir] registered an IC50 of 8 to 13 nM.

One may read the IC50 as the concentration needed to halve the response being measured. Higher therefore signals lower potency.
